Compound potency records, mixed from different reports. Data source: NIAID ChemDB in PubChem.

Shared fields: tests on isolated targets; agent: HIV-1; target: Protease; measure: Ki

a–b is a range or a potency band. An empty or dashed field is not shown. Lines come from different laboratories, so protocols vary.

structure	strain or isolate	mutations	method	setting	result
CCCN=C(NC#N)NCCCC(C)(C)CN(C[C@@H](O)[C@H](Cc1ccccc1)NC(=O)O[C@H]1CO[C@H]2OCC[C@H]21)S(=O)(=O)c1ccc2c(c1)OCO2			fluorescence		<0.001 µM
COC(=O)N[C@H](C(=O)NN(CCC[C@@]1(Cc2ccccc2)C(=O)N(C2c3ccccc3C[C@H]2O)C[C@H]1O)Cc1ccc(Br)cc1)C(C)(C)C			fluorescence		0.0063 µM
CC(C)(CCCN)CN(C[C@@H](O)[C@H](Cc1ccccc1)NC(=O)O[C@H]1CO[C@H]2OCC[C@H]21)S(=O)(=O)c1cccc2c1OCO2			fluorescence		<0.001 µM
O=C(Cc1cccc2ccccc12)Nc1ccccc1CN1C[C@H](O)[C@@H](O)CN(Cc2ccccc2Br)S1(=O)=O			fluorescence		0.28 µM
CN(C)C(=O)NCC(=O)NCCCC(C)(C)CN(C[C@@H](O)[C@H](Cc1ccccc1)NC(=O)O[C@H]1CO[C@H]2OCC[C@H]21)S(=O)(=O)c1ccc2c(c1)OCO2			fluorescence		<0.001 µM
COc1ccc(S(=O)(=O)N(CC(C)C)C[C@@H](O)[C@@H]2Cc3ccc(cc3)OCCCCCc3c(O)cccc3C(=O)N2)cc1			fluorescence		0.00025 µM
CNc1cccc(S(=O)(=O)N(C[C@@H](O)[C@H](Cc2ccccc2)NC(=O)O[C@H]2CO[C@H]3OCC[C@H]32)CC(C)(C)CCCCNS(C)(=O)=O)c1			fluorescence		<0.001 µM
Nc1cccc(C(=O)N[C@H](Cc2ccccc2)C[C@H](O)[C@H](Cc2ccccc2)NC(=O)c2cccc(N)c2)c1		PR-R8Q	substrate cleavage		0.034 µM
COc1ccc(CN2CC(=O)N[C@H](Cc3ccccc3)[C@H](O)[C@H]2CO)cc1	IIIB				0.923 µM
COc1ccc(S(=O)(=O)N(C[C@@H](O)[C@H](Cc2ccccc2)NC(=O)OCCS(C)(=O)=O)CC(C)(C)CCC#N)cc1			fluorescence		0.001–0.01 µM
COC(=O)[C@@H](NC(=O)[C@@H](NC(=O)CC[C@H](O)[C@H](Cc1ccccc1)NC(=O)[C@H](C)NC(=O)[C@H](C)N)C(C)C)C(C)C			HPLC		0.004 µM
CCC(=O)O[C@H](C/C=C(\C)C(=O)OC)C[C@@H](OC(C)=O)[C@H](CCCOC(=O)CC(C)C)OC(=O)CC(C)C			fluorescence		4.2 µM
COC(=O)[C@@H](NC(=O)[C@@H](NC(=O)C1CCCC1P(=O)(O)[C@H](Cc1ccccc1)NC(=O)[C@H](C)NC(=O)[C@H](C)NC(=O)[C@@H](N)CO)C(C)C)C(C)C			HPLC		4 µM
CSC(=O)NCCCC(C)(C)CN(C[C@@H](O)[C@H](Cc1ccccc1)NC(=O)O[C@H]1CO[C@H]2OCC[C@H]21)S(=O)(=O)c1ccc2c(c1)OCO2			fluorescence		<0.001 µM
O=S1(=O)N(Cc2ccccc2)C[C@H](O)[C@@H](O)CN1Cc1ccccc1-c1ccccc1			fluorescence		>20 µM
COCC(=O)NCCCC(C)(C)CN(C[C@@H](O)[C@H](Cc1ccccc1)NC(=O)O[C@H]1CO[C@H]2OCC[C@H]21)S(=O)(=O)c1ccc2c(c1)OCO2			fluorescence		<0.001 µM
COc1ccc(CCOC(=O)[C@H]2[C@H](O)[C@H](Cc3ccccc3)N(Cc3ccc(OC)cc3)C(=O)N2Cc2ccc(OC)cc2)cc1	IIIB				>12.5 µM
COC(=O)N[C@H](C(=O)NN(CC[C@]1(Cc2ccccc2)C(=O)N(C2c3ccccc3C[C@H]2O)C[C@H]1O)Cc1ccc(Br)cc1)C(C)(C)C			fluorescence		0.0063 µM
O=C(N[C@@H](Cc1ccccc1)[C@H](O)CN(CC1CCCC1)S(=O)(=O)c1ccc(F)cc1)O[C@@H]1CCOC1			HPLC		0.0002 µM
CCC(C)[C@@H]1NC(=O)C(NCC(=O)[C@@H]2Cc3ccc(cc3)OCCCCC(=O)N[C@@H](C(C)C)C(=O)N2)Cc2ccc(cc2)OCCCNC1=O			substrate cleavage		0.8 µM
CC(C)[C@H](NC(=O)[C@H](Cc1ccccc1)C[C@H](O)[C@H](Cc1ccccc1)NC(=O)[C@H](C)NC(=O)OCc1ccccc1)C(N)=O			HPLC		0.0007 µM
COc1ccc(S(=O)(=O)N(CC(C)C)C[C@@H](O)[C@@H]2Cc3ccc(cc3)OCCCCCCCCc3c(O)cccc3C(=O)N2)cc1			fluorescence		0.02 µM
CC(C)(CCCCNC(=O)CCC1CCCC1)CN(C[C@@H](O)[C@H](Cc1ccccc1)NC(=O)O[C@H]1CO[C@H]2OCC[C@H]21)S(=O)(=O)c1ccc2c(c1)OCO2			fluorescence		<0.001 µM
COC(=O)N[C@H](C(=O)NN(CC[C@@]1(Cc2ccccc2)C(=O)N(C2c3ccccc3C[C@H]2O)C[C@H]1O)Cc1ccc(-c2ccccn2)cc1)C(C)(C)C			fluorescence		0.0063 µM
CCC(=O)O[C@H](C/C=C(\C)C(=O)OC)C[C@H](OC(C)=O)[C@H](CCCOC(=O)CC(C)C)OC(=O)CC(C)C			fluorescence		16 µM
C=C(C)CN(C[C@@H](O)[C@H](Cc1ccccc1)NC(=O)OC(C)(C)C)S(=O)(=O)c1ccc(NC(C)=O)cc1			HPLC		0.006 µM
COC(=O)N[C@H](C(=O)NN(CC[C@@]1(Cc2ccccc2)C(=O)N(C2c3ccccc3C[C@H]2O)C[C@@H]1O)Cc1ccc(-c2cccnc2)cc1)C(C)(C)C			fluorescence		0.0063 µM
O=C(NCc1ccc2c(c1)[C@H](O)[C@@H](O)c1cc(CNC(=O)OCc3ccccc3)ccc1C2=O)OCc1ccccc1					0.005 µM
C=CCCOC(=O)NCCCCC(C)(C)CN(C[C@@H](O)[C@H](Cc1ccccc1)NC(=O)O[C@H]1CO[C@H]2OCC[C@H]21)S(=O)(=O)c1ccc2c(c1)OCO2			fluorescence		<0.001 µM
COC(=O)[C@@H](NC(=O)[C@@H](NC(=O)[C@@H](C[C@H](O)[C@H](Cc1ccccc1)NC(=O)[C@H](C)NC(=O)OCc1ccccc1)C(C)C)C(C)C)C(C)C			HPLC	pH 6.0	0.0009 µM
CC(=O)C[C@H](NC(=O)c1ccc2ccccc2n1)C(=O)N[C@@H](Cc1ccccc1)[C@@H](O)CN(CC(C)C)S(=O)(=O)c1ccc(NC(C)=O)cc1			HPLC		0.4 µM
COc1ccc(S(=O)(=O)N(CC(C)C)C[C@@H](O)[C@H](Cc2ccccc2)NC(=O)O[C@H]2CC3COC4OC2CC34)cc1	LAI		substrate cleavage / fluorescence		0.000034 µM
CC(C)[C@H](NC(=O)OCc1ccccc1)C(=O)N[C@@H](Cc1ccccc1)C(O)[C@H](Cc1ccccc1)NC(=O)[C@@H](NC(=O)OCc1ccccc1)C(C)C					0.01 µM
CC[C@H](C)[C@H](NC(=O)[C@@H](NCC(O)[C@H](CC(C)C)NC(=O)[C@H](Cc1cnc[nH]1)N(C)C(=O)[C@H](Cc1ccccc1)NC(=O)[C@@H]1CCCN1C(=O)OC(C)(C)C)C(C)C)C(=O)NCc1ccccn1					0.01 µM
CC(C)(CCCCNS(C)(=O)=O)CN(C[C@@H](O)[C@H](Cc1ccccc1)NC(=O)O[C@H]1CO[C@H]2OCC[C@H]21)S(=O)(=O)c1cccc(N)c1			fluorescence		<0.001 µM
O=C(CCl)/C(=N\O)c1ccc(Cl)cc1					6.3 µM
CC(C)C[C@@H](C=O)NC(=O)[C@H](CO)NC(=O)[C@H](Cc1ccc(O)cc1)NC(=O)[C@H](CCC(=O)O)NC(=O)[C@H](CC(C)C)NC(=O)[C@@H](N)CC(C)C			HPLC		0.01 µM
COc1ccc(S(=O)(=O)N(CC2CCCC2)C[C@@H](O)[C@H](Cc2ccccc2)NC(=O)OCc2cccnc2)cc1			HPLC		<0.0001 µM
O=C1N(Cc2ccccc2)[C@H](Cc2ccccc2)[C@H](O)CN2[C@@H]3CC[C@]12C[C@@H]3NCc1ccccc1					2.8 µM
CC[C@H](C)[C@H](NC(=O)[C@@H](C[C@H](O)[C@H](CC1CCCCC1)NC(=O)CC(C)(C)C)C(C)C)C(=O)NCc1ccccn1					0.08 µM
CC(C)(CCCNC(=O)NCc1ccccc1)CN(C[C@@H](O)[C@H](Cc1ccccc1)NC(=O)O[C@H]1CO[C@H]2OCC[C@H]21)S(=O)(=O)c1ccc2c(c1)OCO2			fluorescence		<0.001 µM
CC(C)CN(C[C@@H](O)[C@H](Cc1cc(F)cc(F)c1)NC(=O)O[C@H]1CO[C@H]2OC[C@H](NC(C)C)[C@H]21)S(=O)(=O)c1ccc2nc(NC3CC3)sc2c1			substrate cleavage / fluorescence		0.0001 µM
CNC(=S)NCCCCC(C)(C)CN(C[C@@H](O)[C@H](Cc1ccccc1)NC(=O)O[C@H]1CO[C@H]2OCC[C@H]21)S(=O)(=O)c1ccc2c(c1)OCO2			fluorescence		<0.001 µM
CCOC(=O)C1OC1[C@@H]1[C@@H](O)[C@@H](Cc2ccccc2)N(Cc2ccc(OC)cc2)C(=O)N1Cc1ccc(OC)cc1	IIIB				>12.5 µM
COC(=O)NCCCCC(C)(C)CN(C[C@@H](O)[C@H](Cc1ccccc1)NC(=O)O[C@H]1CO[C@H]2OCC[C@H]21)S(=O)(=O)c1cccc2c1OCO2			fluorescence		<0.001 µM
CCOC(=O)C1=CN(Cc2ccccc2)C2C(CO)(C3N(Cc4ccccc4)C=C(C(=O)OCC)[C@H](c4ccccc4)C23CO)[C@H]1c1ccccc1					5.8 µM
O=S1(=O)N(Cc2ccccc2Cc2ccccc2)C[C@H](O)[C@@H](O)CN1Cc1ccccc1-c1ccccc1			fluorescence		6.3 µM
CCC(C)[C@H](NC(=O)C(Cc1ccccc1)NCC(=O)[C@H](Cc1ccccc1)NC(=O)[C@@H](NC(=O)C(CC(C)C)NC(C)=O)C(C)C)C(=O)N[C@H](C(N)=O)C(C)C			substrate cleavage		60 µM
CNc1cccc(S(=O)(=O)N(C[C@@H](O)[C@H](Cc2ccccc2)NC(=O)O[C@H]2CO[C@H]3OCC[C@H]32)CC(C)(C)CCNC(=O)N(C)C)c1			fluorescence		<0.001 µM
C=CCN1C(=O)N(Cc2ccc(OC)cc2)[C@@H](C(=O)OCC)[C@H](O)[C@@H]1Cc1ccccc1	IIIB				>12.5 µM
CN(C)C(=O)NCCCCC(C)(C)CN(C[C@@H](O)[C@H](Cc1ccccc1)NC(=O)O[C@H]1CO[C@H]2OCC[C@H]21)S(=O)(=O)c1ccc(N)cc1			fluorescence		<0.001 µM
O=S1(=O)N(Cc2ccccc2/C=C/c2ccccc2)C[C@H](O)[C@@H](O)CN1Cc1ccccc1Cc1ccccc1			fluorescence		1.8 µM
CC(C)(CCCN=C(NC#N)Oc1ccccc1)CN(C[C@@H](O)[C@H](Cc1ccccc1)NC(=O)O[C@H]1CO[C@H]2OCC[C@H]21)S(=O)(=O)c1ccc2c(c1)OCO2			fluorescence		<0.001 µM
COC(=O)N[C@H](C(=O)NN(CC[C@@]1(Cc2ccccc2)C(=O)N(C2c3ccccc3C[C@H]2O)C[C@@H]1O)Cc1ccc(-c2ccncc2)cc1)C(C)(C)C			fluorescence		0.0063 µM
CCCCNC(=O)OCCCC(C)(C)CN(C[C@@H](O)[C@H](Cc1ccccc1)NC(=O)O[C@H]1CO[C@H]2OCC[C@H]21)S(=O)(=O)c1ccc2c(c1)OCO2			fluorescence		<0.001 µM
O=C(N[C@@H](Cc1ccccc1)[C@H](O)[C@H](O)[C@@H](Cc1ccccc1)NC(=O)OCc1ccccc1)OCc1ccccc1			substrate cleavage		0.026 µM
CN=C(NC#N)NCCCCC(C)(C)CN(C[C@@H](O)[C@H](Cc1ccccc1)NC(=O)O[C@H]1CO[C@H]2OCC[C@H]21)S(=O)(=O)c1ccc2c(c1)OCO2			fluorescence		<0.001 µM
COC(=O)N[C@H](C(=O)NN(CC[C@@]1(Cc2ccccc2)C(=O)N(C2c3ccccc3C[C@H]2O)C[C@H]1O)Cc1ccc(-c2ccncc2)cc1)C(C)(C)C			fluorescence		0.0063 µM
CNC(=O)NCCCCC(C)(C)CN(C[C@@H](O)[C@H](Cc1ccccc1)NC(=O)O[C@H]1CO[C@H]2OCC[C@H]21)S(=O)(=O)c1ccc2c(c1)OCO2			fluorescence		<0.001 µM
CCCC1(CCc2ccccc2)CC(=O)C(C(CC)c2cccc(NS(=O)(=O)c3ccc(C(F)(F)F)cn3)c2)=C(O)C1			substrate cleavage		0.012 µM

Repeating the final 7 entries:

structure	strain or isolate	mutations	method	setting	result
COC(=O)N[C@H](C(=O)NN(CC[C@@]1(Cc2ccccc2)C(=O)N(C2c3ccccc3C[C@H]2O)C[C@@H]1O)Cc1ccc(-c2ccncc2)cc1)C(C)(C)C			fluorescence		0.0063 µM
CCCCNC(=O)OCCCC(C)(C)CN(C[C@@H](O)[C@H](Cc1ccccc1)NC(=O)O[C@H]1CO[C@H]2OCC[C@H]21)S(=O)(=O)c1ccc2c(c1)OCO2			fluorescence		<0.001 µM
O=C(N[C@@H](Cc1ccccc1)[C@H](O)[C@H](O)[C@@H](Cc1ccccc1)NC(=O)OCc1ccccc1)OCc1ccccc1			substrate cleavage		0.026 µM
CN=C(NC#N)NCCCCC(C)(C)CN(C[C@@H](O)[C@H](Cc1ccccc1)NC(=O)O[C@H]1CO[C@H]2OCC[C@H]21)S(=O)(=O)c1ccc2c(c1)OCO2			fluorescence		<0.001 µM
COC(=O)N[C@H](C(=O)NN(CC[C@@]1(Cc2ccccc2)C(=O)N(C2c3ccccc3C[C@H]2O)C[C@H]1O)Cc1ccc(-c2ccncc2)cc1)C(C)(C)C			fluorescence		0.0063 µM
CNC(=O)NCCCCC(C)(C)CN(C[C@@H](O)[C@H](Cc1ccccc1)NC(=O)O[C@H]1CO[C@H]2OCC[C@H]21)S(=O)(=O)c1ccc2c(c1)OCO2			fluorescence		<0.001 µM
CCCC1(CCc2ccccc2)CC(=O)C(C(CC)c2cccc(NS(=O)(=O)c3ccc(C(F)(F)F)cn3)c2)=C(O)C1			substrate cleavage		0.012 µM